From patent US6974685B2, “High production method of prenyl alcohol using saccharomyces cells” (Toyota Jidosha Kabushiki Kaisha 1, priority 2000, dated 2005)

Columns and labels:
Type in all cases: cell-based
[1] = test system: K 4104 Saccharomyces cerevisiae; assay: Test-tube culture in YM or YM + 5% glucose + 1% soybean oil (Example 7)
[2] = test system: IFO 0215 Saccharomyces unisporus; assay: Test-tube culture with ergosterol and squalene synthesis inhibitor SQAD, with or without glucose and soybean oil (Example 8)
[3] = test system: IFO 0622 Candida glabrata; assay: as above
[4] = test system: IFO 0717 Yarrowia lopolytica; assay: as above
[5] = test system: IFO 0948 Komagataella pastoris; assay: as above
[6] = test system: IFO 0974 Kuraishia capsulata; assay: as above
[7] = test system: IFO 1892 Saccharomyces kluyeri; assay: as above
[8] = test system: IFO 3032 Baccilus amyloliquefaciens; assay: Control culture of bacterial strain in KB medium (Example 11, Table 14); settings: treated with phosphatase
[9] = test system: IFO 3762 Staphylococcus epidermidis; assay: as above; settings: treated with phosphatase
[10] = YM + 5% glucose + 1% soybean oil, 3 days
[11] = YM + 5% glucose + 1% soybean oil, 6 days
[12] = YM + 4 mg/L ergosterol, SQAD 0 mg/L, 3 days
[13] = YM + 4 mg/L ergosterol, SQAD 0 mg/L, 7 days
[14] = YM + 4 mg/L ergosterol, SQAD 1 mg/L, 3 days
[15] = YM + 4 mg/L ergosterol, SQAD 1 mg/L, 7 days
[16] = YM + 4 mg/L ergosterol, SQAD 20 mg/L, 3 days
[17] = YM + 4 mg/L ergosterol, SQAD 20 mg/L, 7 days
[18] = YM + 5% glucose + 1% soybean oil + 4 mg/L ergosterol, SQAD 0 mg/L, 3 days
[19] = YM + 5% glucose + 1% soybean oil + 4 mg/L ergosterol, SQAD 0 mg/L, 7 days
[20] = YM + 5% glucose + 1% soybean oil + 4 mg/L ergosterol, SQAD 1 mg/L, 3 days
[21] = YM + 5% glucose + 1% soybean oil + 4 mg/L ergosterol, SQAD 1 mg/L, 7 days
[22] = YM + 5% glucose + 1% soybean oil + 4 mg/L ergosterol, SQAD 20 mg/L, 3 days
[23] = YM + 5% glucose + 1% soybean oil + 4 mg/L ergosterol, SQAD 20 mg/L, 7 days

CC(C)=CCC/C(C)=C/CC/C(C)=C/CC/C(C)=C/CO [GGOH, geranylgeraniol]
Cell fraction [1, 10]: 161.6 μg/L of culture solution | Supernatant fraction [1, 10]: 127.7 μg/L of culture solution | Cell fraction [1, 11]: 132.2 μg/L of culture solution | Supernatant fraction [1, 11]: 186.9 μg/L of culture solution | Cell fraction ([1]; YM medium (Difco)): 31.7 μg/L of culture solution | Supernatant fraction ([1]; YM medium (Difco)): 0.0 μg/L of culture solution | Cell fraction [2, 12]: 0.0 μg/L of culture solution | Supernatant fraction [2, 12]: 0.0 μg/L of culture solution | Cell fraction [2, 13]: 0.0 μg/L of culture solution | Supernatant fraction [2, 13]: 0.0 μg/L of culture solution | Cell fraction [2, 14]: 0.0 μg/L of culture solution | Supernatant fraction [2, 14]: 0.0 μg/L of culture solution | Cell fraction [2, 15]: 0.0 μg/L of culture solution | Supernatant fraction [2, 15]: 0.0 μg/L of culture solution | Cell fraction [2, 16]: 0.0 μg/L of culture solution | Supernatant fraction [2, 16]: 0.0 μg/L of culture solution | Cell fraction [2, 17]: 0.0 μg/L of culture solution | Supernatant fraction [2, 17]: 0.0 μg/L of culture solution | Cell fraction [2, 18]: 0.0 μg/L of culture solution | Supernatant fraction [2, 18]: 0.0 μg/L of culture solution | Cell fraction [2, 19]: 0.0 μg/L of culture solution | Supernatant fraction [2, 19]: 0.0 μg/L of culture solution | Cell fraction [2, 20]: 0.0 μg/L of culture solution | Supernatant fraction [2, 20]: 0.0 μg/L of culture solution | Cell fraction [2, 21]: 0.0 μg/L of culture solution | Supernatant fraction [2, 21]: 0.0 μg/L of culture solution | Cell fraction [2, 22]: 0.0 μg/L of culture solution | Supernatant fraction [2, 22]: 0.0 μg/L of culture solution | Cell fraction [2, 23]: 0.0 μg/L of culture solution | Supernatant fraction [2, 23]: 21.6 μg/L of culture solution | Cell fraction [3, 12]: 30.4 μg/L of culture solution | Supernatant fraction [3, 12]: 0.0 μg/L of culture solution | Cell fraction [3, 13]: 0.0 μg/L of culture solution | Supernatant fraction [3, 13]: 0.0 μg/L of culture solution | Cell fraction [3, 14]: 24.3 μg/L of culture solution | Supernatant fraction [3, 14]: 0.0 μg/L of culture solution | Cell fraction [3, 15]: 0.0 μg/L of culture solution | Supernatant fraction [3, 15]: 0.0 μg/L of culture solution | Cell fraction [3, 16]: 57.0 μg/L of culture solution | Supernatant fraction [3, 16]: 0.0 μg/L of culture solution | Cell fraction [3, 17]: 40.5 μg/L of culture solution | Supernatant fraction [3, 17]: 0.0 μg/L of culture solution | Cell fraction [3, 18]: 33.6 μg/L of culture solution | Supernatant fraction [3, 18]: 112.3 μg/L of culture solution | Cell fraction [3, 19]: 59.2 μg/L of culture solution | Supernatant fraction [3, 19]: 408.5 μg/L of culture solution | Cell fraction [3, 20]: 0.0 μg/L of culture solution | Supernatant fraction [3, 20]: 119.7 μg/L of culture solution | Cell fraction [3, 21]: 58.5 μg/L of culture solution | Supernatant fraction [3, 21]: 231.5 μg/L of culture solution | Cell fraction [3, 22]: 9.3 μg/L of culture solution | Supernatant fraction [3, 22]: 327.2 μg/L of culture solution | Cell fraction [3, 23]: 170.5 μg/L of culture solution | Supernatant fraction [3, 23]: 862.7 μg/L of culture solution | Cell fraction [4, 12]: 0.0 μg/L of culture solution | Supernatant fraction [4, 12]: 0.0 μg/L of culture solution | Cell fraction [4, 13]: 0.0 μg/L of culture solution | Supernatant fraction [4, 13]: 0.0 μg/L of culture solution | Cell fraction [4, 14]: 0.0 μg/L of culture solution | Supernatant fraction [4, 14]: 0.0 μg/L of culture solution | Cell fraction [4, 15]: 0.0 μg/L of culture solution | Supernatant fraction [4, 15]: 0.0 μg/L of culture solution | Cell fraction [4, 16]: 63.5 μg/L of culture solution | Supernatant fraction [4, 16]: 66.5 μg/L of culture solution | Cell fraction [4, 17]: 0.0 μg/L of culture solution | Supernatant fraction [4, 17]: 0.0 μg/L of culture solution | Cell fraction [4, 18]: 0.0 μg/L of culture solution | Supernatant fraction [4, 18]: 0.0 μg/L of culture solution | Cell fraction [4, 19]: 38.4 μg/L of culture solution | Supernatant fraction [4, 19]: 608.0 μg/L of culture solution | Cell fraction [4, 20]: 0.0 μg/L of culture solution | Supernatant fraction [4, 20]: 19.1 μg/L of culture solution | Cell fraction [4, 21]: 0.0 μg/L of culture solution | Supernatant fraction [4, 21]: 546.8 μg/L of culture solution | Cell fraction [4, 22]: 0.0 μg/L of culture solution | Supernatant fraction [4, 22]: 17.8 μg/L of culture solution | Cell fraction [4, 23]: 41.8 μg/L of culture solution | Supernatant fraction [4, 23]: 76.2 μg/L of culture solution | Cell fraction [5, 12]: 0.0 μg/L of culture solution | Supernatant fraction [5, 12]: 0.0 μg/L of culture solution | Cell fraction [5, 13]: 0.0 μg/L of culture solution | Supernatant fraction [5, 13]: 0.0 μg/L of culture solution | Cell fraction [5, 14]: 0.0 μg/L of culture solution | Supernatant fraction [5, 14]: 0.0 μg/L of culture solution | Cell fraction [5, 15]: 0.0 μg/L of culture solution | Supernatant fraction [5, 15]: 0.0 μg/L of culture solution | Cell fraction [5, 16]: 1.8 μg/L of culture solution | Supernatant fraction [5, 16]: 2.3 μg/L of culture solution | Cell fraction [5, 17]: 0.0 μg/L of culture solution | Supernatant fraction [5, 17]: 0.0 μg/L of culture solution | Cell fraction [5, 18]: 42.3 μg/L of culture solution | Supernatant fraction [5, 18]: 78.9 μg/L of culture solution | Cell fraction [5, 19]: 11.0 μg/L of culture solution | Supernatant fraction [5, 19]: 83.5 μg/L of culture solution | Cell fraction [5, 20]: 28.4 μg/L of culture solution | Supernatant fraction [5, 20]: 71.5 μg/L of culture solution | Cell fraction [5, 21]: 28.2 μg/L of culture solution | Supernatant fraction [5, 21]: 235.7 μg/L of culture solution | Cell fraction [5, 22]: 80.1 μg/L of culture solution | Supernatant fraction [5, 22]: 132.5 μg/L of culture solution | Cell fraction [5, 23]: 84.5 μg/L of culture solution | Supernatant fraction [5, 23]: 360.4 μg/L of culture solution | Cell fraction [6, 12]: 0.0 μg/L of culture solution | Supernatant fraction [6, 12]: 0.0 μg/L of culture solution | Cell fraction [6, 13]: 0.0 μg/L of culture solution | Supernatant fraction [6, 13]: 0.0 μg/L of culture solution | Cell fraction [6, 14]: 0.0 μg/L of culture solution | Supernatant fraction [6, 14]: 0.0 μg/L of culture solution | Cell fraction [6, 15]: 0.0 μg/L of culture solution | Supernatant fraction [6, 15]: 0.0 μg/L of culture solution | Cell fraction [6, 16]: 0.0 μg/L of culture solution | Supernatant fraction [6, 16]: 0.0 μg/L of culture solution | Cell fraction [6, 17]: 0.0 μg/L of culture solution | Supernatant fraction [6, 17]: 0.0 μg/L of culture solution | Cell fraction [6, 18]: 0.0 μg/L of culture solution | Supernatant fraction [6, 18]: 11.1 μg/L of culture solution | Cell fraction [6, 19]: 8.5 μg/L of culture solution | Supernatant fraction [6, 19]: 236.3 μg/L of culture solution | Cell fraction [6, 20]: 7.5 μg/L of culture solution | Supernatant fraction [6, 20]: 46.1 μg/L of culture solution | Cell fraction [6, 21]: 21.2 μg/L of culture solution | Supernatant fraction [6, 21]: 275.7 μg/L of culture solution | Cell fraction [6, 22]: 34.8 μg/L of culture solution | Supernatant fraction [6, 22]: 262.0 μg/L of culture solution | Cell fraction [6, 23]: 59.7 μg/L of culture solution | Supernatant fraction [6, 23]: 680.4 μg/L of culture solution | Cell fraction [7, 12]: 8.9 μg/L of culture solution | Supernatant fraction [7, 12]: 0.0 μg/L of culture solution | Cell fraction [7, 13]: 0.0 μg/L of culture solution | Supernatant fraction [7, 13]: 0.0 μg/L of culture solution | Cell fraction [7, 14]: 16.7 μg/L of culture solution | Supernatant fraction [7, 14]: 0.0 μg/L of culture solution | Cell fraction [7, 15]: 0.0 μg/L of culture solution | Supernatant fraction [7, 15]: 0.0 μg/L of culture solution | Cell fraction [7, 16]: 38.5 μg/L of culture solution | Supernatant fraction [7, 16]: 0.0. μg/L of culture solution | Cell fraction [7, 17]: 0.0 μg/L of culture solution | Supernatant fraction [7, 17]: 0.0 μg/L of culture solution | Cell fraction [7, 18]: 0.0 μg/L of culture solution | Supernatant fraction [7, 18]: 46.1 μg/L of culture solution | Cell fraction [7, 19]: 0.0 μg/L of culture solution | Supernatant fraction [7, 19]: 71.4 μg/L of culture solution | Cell fraction [7, 20]: 0.0 μg/L of culture solution | Supernatant fraction [7, 20]: 23.0 μg/L of culture solution | Cell fraction [7, 21]: 0.0 μg/L of culture solution | Supernatant fraction [7, 21]: 101.7 μg/L of culture solution | Cell fraction [7, 22]: 0.0 μg/L of culture solution | Supernatant fraction [7, 22]: 30.7 μg/L of culture solution | Cell fraction [7, 23]: 27.8 μg/L of culture solution | Supernatant fraction [7, 23]: 126.4 μg/L of culture solution | Cell fraction [8]: 0.0 μg/L of culture solution | Supernatant fraction [8]: 0.0 μg/L of culture solution | Cell fraction [9]: 0.0 μg/L of culture solution | Supernatant fraction [9]: 0.0 μg/L of culture solution
